Sequence variants of PSTVd loop 1 after infection

Values reported by Wu et al. 2024 (doi:10.1371/journal.ppat.1012142).

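A pool of all variants was put on leaves of three Nicotiana benthamiana plants. Progeny were sequenced from the inoculated region (day 5), the margin of the inoculated leaf (day 10) and systemic leaves (day 12).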

Region: loop 1 of PSTVd (intermediate strain), 5' to 3', with the closing base pair. Wild type: CCUCGG. Varied positions (N): CNNNNG.

Numbers give reads per thousand; 0 = not seen among the reads, higher = more abundant.
Each value is the mean of three plants.
"Pool" is the share in the plasmid pool used as inoculum, on the same scale.
The inoculated region was read from the minus strand, the other sites from the plus strand.
IR is the inoculated region, LM the leaf margin, Sys the systemic leaves.
The authors trace changes outside the varied positions to PCR and sequencing errors or to mutation in the plant; presence does not show that a variant is infectious alone.
Samples held 32,791 to 60,834 reads, so the smallest values rest on one or two reads.
For reference, wild type rose from 20.1 per thousand in the pool to 197, 219, 222 (inoculated region), 828, 823, 779 (leaf margin) and 914, 907, 857 (systemic leaves).

* CCACUG (pool 3.27) = IR 2.64; LM 0.0137; Sys 0
* CAACCG (pool 3.81) = IR 2.89; LM 0.0102; Sys 0
* CCUCCG (pool 4.05) = IR 2.87; LM 5.31; Sys 0.0263
* CCGUUG (pool 4.22) = IR 2.93; LM 0; Sys 0.00548
* CAUACA (pool 0.0131) = IR 0; LM 0; Sys 0
* GUGGUG (pool 0.0131) = IR 0; LM 0; Sys 0
* CAGCCG (pool 5.08) = IR 1.93; LM 0.00704; Sys 0.0274
* CGUACG (pool 3.98) = IR 2.85; LM 0; Sys 0
* ACUCGA (pool 0.0131) = IR 0; LM 0; Sys 0
* CGAUGG (pool 3.64) = IR 2.78; LM 0.00663; Sys 0
* CUUAGG (pool 3.44) = IR 2.79; LM 0.0133; Sys 0
* GGGUCG (pool 0.0131) = IR 0; LM 0; Sys 0
* CUGAGG (pool 3.47) = IR 2.71; LM 0.00704; Sys 0
* CCCCUG (pool 3.92) = IR 2.73; LM 0.0168; Sys 0
* CACACG (pool 3.73) = IR 2.75; LM 0.0168; Sys 0
* CAUAUG (pool 4.40) = IR 3.00; LM 0.00704; Sys 0.00548
* CAUUGG (pool 4.20) = IR 2.84; LM 0; Sys 0.00599
* CGGGCG (pool 3.68) = IR 2.60; LM 0; Sys 0.00548
* CCUGGU (pool 0.0263) = IR 0.0550; LM 0; Sys 0.0182
* CUUGAG (pool 3.53) = IR 2.84; LM 0.00663; Sys 0.00548
* CAUGUG (pool 3.59) = IR 2.80; LM 0.00663; Sys 0
* CCGUGG (pool 3.40) = IR 2.73; LM 0.00663; Sys 0
* CAAAGG (pool 3.30) = IR 2.73; LM 0.0168; Sys 0
* CCGACG (pool 3.73) = IR 2.83; LM 0.00704; Sys 0.00548
* CACUUG (pool 4.26) = IR 3.00; LM 0.00663; Sys 1.24
* CUUAUG (pool 3.74) = IR 3.12; LM 0.00663; Sys 0.0110
* CUCGCG (pool 5.11) = IR 2.71; LM 0.0102; Sys 0.0219
* CCUAUG (pool 4.36) = IR 2.87; LM 0.0172; Sys 0.0300
* UGUCCG (pool 0.0131) = IR 0; LM 0; Sys 0

The opening 4 entries, copied out:

For CCACUG (pool 3.27) the result was IR 2.64; LM 0.0137; Sys 0.
For CAACCG (pool 3.81) the result was IR 2.89; LM 0.0102; Sys 0.
For CCUCCG (pool 4.05) the result was IR 2.87; LM 5.31; Sys 0.0263.
For CCGUUG (pool 4.22) the result was IR 2.93; LM 0; Sys 0.00548.